Consider one substance from patent US5629198A (priority 1991, dated 1997).

The test system of data set [1] is OM-10.1 (HL-60/LAV) cells. Kind of data set: Killing effect on various HIV-infected cells (Test Example 4). The settings on record: 3 × 10^4 cell/well. It is filed as cell-based. The method, then:
(§1) MOLT4/HTLV-IIIB cells in a logarithmic growth phase were inoculated on a 96-well flat-bottom plate in a proportion of 2×10^4 cells/well (50 μl), and the above test substances in various concentrations were separately added in an amount of 50 μl thereto. After each cell sample was cultured for 3 days at 37° C. in the presence of 5% CO2, the number of living cells was counted by the MTT assay. More specifically, a 7.5 mg of MTT [3-(4,5-dimethylthiazol-2-yl)-2,5-diphenyl-2H-tetrazolium bromide]/ml phosphate buffer was added in a proportion of 20 μl/well to each well, thereby conducting reaction for 2 hours at 37° C. in the presence of 5% CO2. Then, 150 μl of a lysis solution [10% Triton X-100 solution in acid isopropanol] were added, and the mixture was thoroughly pipetted to solubulize the cells. Thereafter, the absorbance of the solution was measured.
(§2) The killing effects of test substances on H9/MN cells, Hela/LAV cells and OM -10.1 (HL-60/LAV) cells were determined in the same manner as in Test Example 3 (1).

In the next data set the test system is H9/MN cells. Described as above. It is filed as cell-based. Particulars: 2 × 10^4 cell/well. The method, then: as §1, §2
The test system of the next data set is Hela/LAV cells. The data set is described as above. Format: cell-based. Particulars: 0.8 × 10^4 cell/well. How it is done: as §1, §2
In data set [2] the test system is HIV envelope protein gp120 positive cells. Briefly: gp120 positive cells in HIV-infected PBL system, FACS (Test Example 7). Particulars: 200 μg/ml. It is filed as cell-based, human. The method, then:
The anti-HIV effects of test substances on human peripheral blood lymphocytes infected with HIV were determined.
After blood is collected from a vein by a syringe whose interior wall is wetted with heparin, PBL is separated from the blood with Ficol. After this PBL cell is inoculated on a 25-cm^2 culture flask containing 10 ml of a RPMI 1640 medium (including IL-2) added with 20% of a fetal bovine serum so as to contain 7×10^5 cells/ml therein, 40 μl (1 mg/ml) of PHA are added to culture the cells for 2 days. After 2 days, the cells are washed. Thereafter, they are used in assaying the anti-HIV effects of the test substances as PBL cells in an HIV-uninfected system for part of them, and in an HIV-infected system for the remainder. The PBL cells are inoculated on a 25-cm^2 culture flask added with 5 ml of the above medium so as to contain 2×10^6 cells therein. Then, 500 μl (final concentration: 200 μg/ml) of S-HSA-EDC-Hemin are given thereto so as to conduct culture at 37° C. in the presence of 5% CO2, thereby assaying the cytotoxic effect of the test substance. With respect to the infected system on the other hand, 0.5 ml of HTLV-IIIB (10^7 TCID50 /ml) obtained from a culture supernatant of an HIV-persistently infected strain, MOLT-4/HTLV-IIIB is inserted in the PBL cells to culture them for 2 days. Thereafter, the cells are washed, and then inoculated on a 25-cm^2 culture flask added with 5 ml of the medium so as to contain 2×10^6 cells therein. In the same manner as described above, S-HSA-EDC-Hemin is given thereto, thereby conducting culture at 37° C. in the presence of 5% CO2. After 4 days, the number of cells are counted to calculate the number of HIV envelope protein gp120 positive cells, analysis making use of FACS and the quantity of P24 protein produced.

Data set [3] relates to mixed culture of Molt-4/C18 cells and Molt-4/IIIB cells. Kind of data set: Inhibiting effect on formation of multinucleated giant cells, mixed culture (Test Example 8 (1)). Format: cell-based, human. The settings on record: mixed culture system and cell-free system. The method, then:
(1) The inhibiting effects of test substances on the formation of multinucleated giant cells in a mixed culture system of Molt-4/C18 cells and Molt-4/IIIB cells were investigated.
Molt-4/C18 cells in a logarithmic growth phase were inoculated in a proportion of 2.5×10^4 cells/well (25 μl) on a 96-well flat-bottom plate. Similarly, Molt-4/HTL-VIIIB cells in a logarithmic growth phase were inoculated in a proportion of 0.5×10^4 cells/well (25 μl) on the same plate. Then, solutions of the test substances in various concentrations were separately added in an amount of 50 μl, followed by their culture at 37° C. under conditions of 5% CO2. To wells for a positive control, 50 μl of a culture medium were added in place of the solution of each test substance. To wells for a negative control, 3×10^4 cells/well (50 μl) of Molt-4/C18 cells and 50 μl of the culture medium instead of the solution of each test substance were added. Defining the day the culture was started as Day 0, the culture was continuously conducted for 3 days to observe a state of formation of multinucleated giant cells on Day 3 through a microscope. The state of formation of multinucleated giant cells was evaluated by scoring by 6 ranks with the negative control and the positive control ranked as (-) and (+++++), respectively. […]

Data set [4] relates to Molt-4/C18 cells infected with Molt-4/HTLV-IIIB culture supernatant. Kind of data set: Inhibiting effect on cytopathy, MTT assay (Test Example 8 (2)). Particulars: 4 days, positive control 27. It is filed as cell-based, human. How it is done:
(2) The inhibiting effects of test substances on the formation of multinucleated giant cells and on cytopathy in a Molt-4/C18 cell-infected system were investigated.
Molt-4/C18 cells in a logarithmic growth phase were inoculated in a proportion of 2×10^4 cells/well (20 μl) on a 96-well flat-bottom plate, and 30 μl of a culture supernatant of Molt-4/HTLV-IIIB cells were added. Then, solutions of the test substances in various concentrations were separately added in an amount of 50 μl, followed by their culture at 37° C. under conditions of 5% CO2. To wells for a positive control, 50 μl of a culture medium were added in place of the solution of each test substance, while to wells for a negative control, 30 μl of the culture medium were added instead of the culture supernatant. Defining the day the culture was started as Day 0, the culture was continuously conducted for 4 days to observe a state of formation of multinucleated giant cells and to count the number of living cells by the MTT assay.

As to “S--HSA--EDC-Hemin: complex of succinylated human serum albumin and EDC-Hemin”, the “number of living cells (% of control)” value in data set [1] (25 μg/ml) came to 98%; in data set [1] (50 μg/ml), 93%; in data set [1] (100 μg/ml), 78%; in data set [1] (200 μg/ml), 36%; in data set [1] (400 μg/ml) it was 4%; with H9/MN cells (25 μg/ml) it was 79%. Besides, the “number of living cells (% of control)” value in the data set with H9/MN cells (50 μg/ml) is 59%; in the data set on H9/MN cells (100 μg/ml), 3%; in the data set with H9/MN cells (200 μg/ml), 1%; in the data set on Hela/LAV cells (25 μg/ml), 91%; in the data set with Hela/LAV cells (50 μg/ml), 82%; with Hela/LAV cells (100 μg/ml) it was 72%. Besides, the results for the “number of living cells (% of control)” value with Hela/LAV cells (200 μg/ml) and with Hela/LAV cells (400 μg/ml) were 32% and 2%, respectively. In addition, in data set [2] (after 4 days), the “gp120 positive cells in infected system compared with the day the test was started” value came out at 16%. Further, the “killing effect on HIV-infected cells” value in data set [2] (after 4 days) was “has a cytotoxic effect, but exhibits a strong and specific killing effect on HIV-infected cells without being attended with the production of HIV”. In addition, the “Number of gp120 positive cells” value is on record as 0.15 ×10^6 in data set [2] (day 0 of culture) and 0.024 ×10^6 in data set [2] (day 4 of culture (untreated 3.4)). Also, in data set [3], the “effect of inhibiting the adsorption and infection of HIV” value is “have an effect of inhibiting the adsorption and infection of HIV”. The “Number of living cells” value in data set [4] (3.125 μg/ml) worked out at 86%; in data set [4] (6.25 μg/ml), 71%; in data set [4] (12.5 μg/ml) it was 53%; in data set [4] (25 μg/ml), 45%.
